Measurements reported in PubChem BioAssay AID504761 (Drosophila RNAi Screening Center, 2011)

Aim: 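Genome-wide fly cell screen for genes dengue virus requires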 (primary screen)
System: D.Mel-2 cells from Drosophila
Knock-down reagent: long dsRNA against Drosophila genes
Challenge: infection with dengue virus type 2; dose and infection time not stated
Detection: 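Cells stained for dengue envelope protein and imaged; percent of infected cells per well on duplicate plates, ranked by infection, with stained nuclei counted for cell number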
Scale: infection score: higher = more virus-infected cells; cell count: higher = more cells in the well
Hit rule: 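Low infection ranks in the two replicates (chance level up to 0.065) followed by a retest with a 1.5-fold or larger significant decrease, p below 0.05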
Calls: active = confirmed: knock-down lowers infection; inactive = not picked or not confirmed
In all, the deposit lists about 22,000 reagents; shown is an unselected part of those that have a named target and a result. Of all reagents, 116 (0.52%) are marked active. 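Calls depend on retest data that are not deposited; infection was ranked per plate without normalising between plates; the unit of the infection score is not given.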 The raw values are shown without normalisation. The numbers tell different reagents against one gene apart. A plus sign joins genes that one reagent is predicted to hit. No sequences are given here. Not given: the amount of reagent, the time to read-out.

After knock-down of alpha-Est5 (GeneID 40905), the screen gave infection score, replicate 1 = 6.13; infection score, replicate 2 = 14.1; cell count, replicate 1 = 5728; cell count, replicate 2 = 6160; inactive.
Against Cul6 (GeneID 39474), the entry reads infection score, replicate 1 = 3.44; infection score, replicate 2 = 6.52; cell count, replicate 1 = 6571; cell count, replicate 2 = 6645; inactive.
Knock-down of skl (GeneID 40016) gave: infection score, replicate 1 = 3.41; infection score, replicate 2 = 6.7; cell count, replicate 1 = 6607; cell count, replicate 2 = 6243; inactive.
grp + CG31782 (retired record) gave infection score, replicate 1 = 9.8; infection score, replicate 2 = 2.53; cell count, replicate 1 = 6957; cell count, replicate 2 = 6356; inactive.
After knock-down of vir-1 (GeneID 34652) #1 the results were infection score, replicate 1 = 3.43; infection score, replicate 2 = 1.99; cell count, replicate 1 = 6445; cell count, replicate 2 = 6819; inactive.
With knock-down of vir-1 (GeneID 34652) #2, the record shows infection score, replicate 1 = 1.38; infection score, replicate 2 = 1.71; cell count, replicate 1 = 6536; cell count, replicate 2 = 6616; inactive.
vir-1 (GeneID 34652) #3 gave infection score, replicate 1 = 8.85; infection score, replicate 2 = 4.28; cell count, replicate 1 = 5896; cell count, replicate 2 = 6148; inactive.
For CG30096 (GeneID 246454), the entry reads infection score, replicate 1 = 8.25; infection score, replicate 2 = 6.83; cell count, replicate 1 = 6569; cell count, replicate 2 = 5853; inactive.
CG11000 (GeneID 40721) #1 showed infection score, replicate 1 = 11.8; infection score, replicate 2 = 5.67; cell count, replicate 1 = 5121; cell count, replicate 2 = 6151; inactive.
Silencing of CG11000 (GeneID 40721) #2 resulted in: infection score, replicate 1 = 2.48; infection score, replicate 2 = 4.69; cell count, replicate 1 = 6897; cell count, replicate 2 = 5927; inactive.
Against gcl (GeneID 35864) #1, the values are infection score, replicate 1 = 5.87; infection score, replicate 2 = 5.29; cell count, replicate 1 = 6147; cell count, replicate 2 = 6780; inactive.
gcl (GeneID 35864) #2 scored infection score, replicate 1 = 18.1; infection score, replicate 2 = 21.1; cell count, replicate 1 = 6531; cell count, replicate 2 = 5378; inactive.
After knock-down of Mitofilin (GeneID 42587), the screen gave infection score, replicate 1 = 1.67; infection score, replicate 2 = 3.14; cell count, replicate 1 = 6514; cell count, replicate 2 = 6594; inactive.

Targets above whose target name starts with V or v:
vir-1 (GeneID 34652) #1: infection score, replicate 1 = 3.43; infection score, replicate 2 = 1.99; cell count, replicate 1 = 6445; cell count, replicate 2 = 6819; call = inactive
vir-1 (GeneID 34652) #2: infection score, replicate 1 = 1.38; infection score, replicate 2 = 1.71; cell count, replicate 1 = 6536; cell count, replicate 2 = 6616; call = inactive
vir-1 (GeneID 34652) #3: infection score, replicate 1 = 8.85; infection score, replicate 2 = 4.28; cell count, replicate 1 = 5896; cell count, replicate 2 = 6148; call = inactive

The list goes on.
After knock-down of CycH (GeneID 40429) #1 the results were infection score, replicate 1 = 2.45; infection score, replicate 2 = 7.07; cell count, replicate 1 = 6745; cell count, replicate 2 = 6254; inactive.
CycH (GeneID 40429) #2 scored infection score, replicate 1 = 3.44; infection score, replicate 2 = 3.97; cell count, replicate 1 = 5434; cell count, replicate 2 = 6369; inactive.
With knock-down of Ir93a (GeneID 42471) #1, the screen gave infection score, replicate 1 = 4.57; infection score, replicate 2 = 4.46; cell count, replicate 1 = 6506; cell count, replicate 2 = 6520; inactive.
Against Ir93a (GeneID 42471) #2, the values are infection score, replicate 1 = 6.18; infection score, replicate 2 = 2.75; cell count, replicate 1 = 5386; cell count, replicate 2 = 7021; inactive.
Depletion of Ir93a (GeneID 42471) #3 gave: infection score, replicate 1 = 23.4; infection score, replicate 2 = 7.62; cell count, replicate 1 = 4271; cell count, replicate 2 = 6868; inactive.
Against ytr (GeneID 47457) #1, the values are infection score, replicate 1 = 10.7; infection score, replicate 2 = 12; cell count, replicate 1 = 6821; cell count, replicate 2 = 6232; inactive.
For ytr (GeneID 47457) #2 the deposit lists infection score, replicate 1 = 2.17; infection score, replicate 2 = 11.9; cell count, replicate 1 = 6630; cell count, replicate 2 = 6009; inactive.
ytr (GeneID 47457) #3 scored infection score, replicate 1 = 0.72; infection score, replicate 2 = 4.74; cell count, replicate 1 = 6215; cell count, replicate 2 = 5925; inactive.
Silencing of sgg (GeneID 31248) #1 gave: infection score, replicate 1 = 2.78; infection score, replicate 2 = 5.63; cell count, replicate 1 = 6701; cell count, replicate 2 = 6376; inactive.
Knock-down of sgg (GeneID 31248) #2 gave: infection score, replicate 1 = 5.13; infection score, replicate 2 = 6.59; cell count, replicate 1 = 6555; cell count, replicate 2 = 6635; inactive.
Knock-down of sgg (GeneID 31248) #3 gave: infection score, replicate 1 = 6.08; infection score, replicate 2 = 2.21; cell count, replicate 1 = 6202; cell count, replicate 2 = 6697; inactive.
sgg (GeneID 31248) #4 showed infection score, replicate 1 = 0.51; infection score, replicate 2 = 3.41; cell count, replicate 1 = 6219; cell count, replicate 2 = 5750; inactive.
CG6834 (GeneID 41409) #1 showed infection score, replicate 1 = 11.8; infection score, replicate 2 = 4.72; cell count, replicate 1 = 5855; cell count, replicate 2 = 6444; inactive.
Knock-down of CG6834 (GeneID 41409) #2 came out at: infection score, replicate 2 = 1.83; cell count, replicate 1 = 270; cell count, replicate 2 = 601; inactive.
